Data as given in PubChem BioAssay AID624099 (ICCB-Longwood, 2012)
Test: 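Human genes that papillomavirus E2 requires to repress the HPV18 LCR promoter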 (primary screen). System: human C33A cervical carcinoma cells (HPV-negative) stably expressing BPV1 E2 and an HPV18 LCR luciferase reporter. Reagents: siRNA pool against human genes, 40 nM. Timing: 72 h. Read-out: 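Per-well luciferase luminescence, z-scored on each plate against the plate mean and SD with control wells left out, then averaged across three replicate plates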. Direction: mean z-score and z-score: higher = stronger reporter signal, weaker E2 silencing. Rule for the call: 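Hit if mean z-score reaches 2 and two or more of three replicate z-scores also reach 2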.
The whole screen tested about 21,000 reagents; shown is an unselected part. Of all reagents, 497 (2.4%) are marked active. 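Higher z means weaker E2 silencing; only reporter increases were scored, and knock-downs that hurt cell survival may mask genuine repressor factors.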 Unmarked entries are inactive.

The opening 2 records as a preview:
gene knocked down | mean z-score | z-score, replicate A | z-score, replicate B | z-score, replicate C
FASTKD2 (FASTK mitochondrial RNA regulator 2) | -0.84 | -0.72 | -0.9 | -0.89
DGCR6 (DiGeorge syndrome critical region gene 6) | -1.4 | -1.39 | -1.35 | -1.46

The listing, from the first entry:
gene knocked down | mean z-score | z-score, replicate A | z-score, replicate B | z-score, replicate C
FASTKD2 (FASTK mitochondrial RNA regulator 2) | -0.84 | -0.72 | -0.9 | -0.89
DGCR6 (DiGeorge syndrome critical region gene 6) | -1.4 | -1.39 | -1.35 | -1.46
C7orf25 (chromosome 7 open reading frame 25) | 0.3 | -0.03 | 0.11 | 0.82
CCDC26 (CCDC26 long non-coding RNA) | 0.35 | 0.2 | 0.27 | 0.59
LOC401490 (retired record) | 1.13 | 1.22 | 1.36 | 0.82
TAAR5 (trace amine associated receptor 5) | -0.17 | 0.29 | -0.46 | -0.35
LOC402524 (retired record) | 0.34 | 0.01 | 0.33 | 0.67
ASXL2 (ASXL transcriptional regulator 2) | -0.3 | -0.65 | -0.46 | 0.22
ZC3H15 (zinc finger CCCH-type containing 15) | -0.55 | -0.97 | -0.72 | 0.02
PTGR2 (prostaglandin reductase 2) | -1.69 | -1.5 | -1.72 | -1.84
ACTR6 (actin related protein 6) | 0.72 | 0.73 | 0.88 | 0.54
TACR2 (tachykinin receptor 2) | 0.32 | 0.36 | 0.37 | 0.23
PHKB (phosphorylase kinase regulatory subunit beta) | 1 | 0.87 | 0.8 | 1.33
ZSCAN31 (zinc finger and SCAN domain containing 31) | 0.16 | 0.15 | 0.23 | 0.11
CXCL14 (C-X-C motif chemokine ligand 14) | -0.95 | -1.07 | -1.11 | -0.67
MTRES1 (mitochondrial transcription rescue factor 1) | -0.74 | -0.22 | -1.03 | -0.98
GPHB5 (glycoprotein hormone subunit beta 5) | -0.11 | -0.21 | 0.01 | -0.14
FAM209A (family with sequence similarity 209 member A) | -0.44 | -0.4 | -0.76 | -0.16
LOC388154 (retired record) | 1.14 | 1.33 | 0.81 | 1.28
CNOT11 (CCR4-NOT transcription complex subunit 11) | 0.39 | 0.5 | 0.27 | 0.39
TBR1 (T-box brain transcription factor 1) | -0.75 | -0.64 | -0.99 | -0.61
FLNC (filamin C) | -0.22 | -0.42 | -0.17 | -0.08
LOC401529 (retired record) | 0.13 | 0.36 | -0.06 | 0.09
